The values below come from article PMC7503848 (International Journal of Molecular Sciences, 2020).

One series deals with myosin A tail. The series is described as follows: Isothermal titration calorimetry, myosin A tail into ZA1. The series is classed as binding, Plasmodium falciparum. To be noted: ITC200, 25 °C, phosphate buffer. On the procedure: ITC experiments were performed using ITC200 Microcalorimeter (Malvern, UK) at 25 °C in phosphate buffer. The cell and syringe volumes were kept 310 µL and 40 µL, respectively. The syringe was loaded with 100 µM MyoA tail for MyoA/MTIP interaction study and 150 µM for MyoA/ZA1 interaction. The sample cell was loaded with 10 µM each of MTIP and ZA1. MTIP and ZA1 were titrated using MyoA tail in injections of 2 µL each except for the first injection that was 0.4 µL. In between each titration, a 150-s interval for stirring was kept to ensure that the signal returns to baseline. Throughout the experiment, constant stirring at 300 rpm was maintained to ensure proper mixing of reaction components. For both experiments, a corresponding buffer control was also set up in which PBS was taken in the syringe. The enthalpy changes of titrations were measured, and the baseline values were subtracted from the test samples. The data analysis was carried out using Origin software and curve-fitted to obtain stoichiometry (N), dissociation constant (Kd), and enthalpy change (ƍH).
(In general: Isothermal titration calorimetry measures the heat released or taken up as one component is titrated into another.)

The subject of the next series is myosin A-MTIP complex. The series is described as follows: Competitive ITC, pre-bound myosin A-MTIP complex into ZA1. The series is classed as binding, Plasmodium falciparum. The protocol:
For the competitive ITC experiment, a pre-bound complex of MyoA-MTIP in an equal molar ratio (150 µM each) was taken in the syringe. The complex was used to titrate ZA1 (10 µM) present in the cell. As a control, the pre-bound MyoA-MTIP complex was titrated in buffer only. All parameters were kept identical to the one-on-one ITC experiment. Origin software was used for data analysis and for calculating binding parameters like stoichiometry (N), binding constant (Kd), and enthalpy change (ƍH).

Where [1] appears, read: 25 °C, pre-bound myosin A-MTIP complex into ZA1.

In the case of “SGRHVFKQLDIDIDIMHELDIELELDIDIDIMHPGDIDIDIDIDIQLDIELDIMHDIDIDIMHMHQLELELDIFKHVAAA [ZA1]”, in the series on myosin A tail, the TΔS entry was “+10.66 kcal/mol”, the ΔG was -8.37 kcal/mol and the ΔH entry is on record as “+2.29 kcal/mol”. In the series with myosin A-MTIP complex (setting [1]), the TΔS came to 65.85 kcal/mol, the ΔG was -5.72 kcal/mol and the ΔH is reported as 60.13 kcal/mol. The “Decrease in binding strength (MTIP-bound versus free myosin A)” value in the series on myosin A-MTIP complex (Kd of myosin A-MTIP complex/ZA1 compared with free myosin A/ZA1) is 80 times.
